Results of unrelated studies side by side (data: NIAID ChemDB).

Common to all: growth or infection tests; organism: Candida tropicalis; endpoint: zone

An empty or dashed field is not shown.

CC(=O)N1CCN(c2ccc(OC[C@H]3CO[C@](Cn4ccnc4)(c4ccc(Cl)cc4Cl)O3)cc2)CC1 ; strain: T2 ; method: agar diffusion / agar ; tested at: 20 mg/mL ; value: 10 mm
O=c1[nH]c(=O)c2nc(-c3ccccn3)c(-c3ccccn3)nc2[nH]1 ; tested at: 250 mg/mL ; value: 15 mm
C=CC(C)(C)c1cc(C2CC(=O)c3c(cc(O)c(CC=C(C)C)c3O)O2)c(O)cc1O ; strain: hemoculture isolate 16819 ; method: agar diffusion / agar ; tested at: 2 mg/mL ; value: 14 mm
Clc1nccc2nc(-c3ccccn3)c(-c3ccccn3)nc12 ; tested at: 500 mg/mL ; value: 35 mm
CC(C)C[C@@H]1NC(=O)[C@H](C(C)C)NC1=O ; strain: MTCC 184 ; method: agar diffusion / agar ; tested at: 16 µg/mL ; value: 21 mm
O=C(OC(CCn1ccnc1)c1ccccc1)c1ccc(Cl)s1 ; method: agar diffusion ; tested at: 1000 µg ; value: 14 mm
Nc1[nH]c(=O)nc2nc(-c3ccccn3)c(-c3ccccn3)nc12 ; tested at: 500 mg/mL ; value: 26 mm
O=C(OC(CCn1ccnc1)c1ccccc1)c1ccc(Cl)c(Cl)c1 ; method: agar diffusion ; tested at: 1000 µg ; value: 13 mm
Cn1c(=S)[nH]c2nc(-c3ccccn3)c(-c3ccccn3)nc2c1=O ; tested at: 500 mg/mL ; value: 0 mm
O=C(OC(CCn1ccnc1)c1ccccc1)c1ccc(C(F)(F)F)cc1 ; method: agar diffusion ; tested at: 1000 µg ; value: 14 mm
C[C@@H]1CC[C@]2(C(=O)O)CC[C@]3(C)C(=CCC4[C@@]5(C)C[C@@H](O)[C@H](O)[C@@](C)(CO)C5CC[C@]43C)C2[C@H]1C ; method: agar diffusion ; tested at: 256 µg/mL ; value: 10.1 mm
Cc1ccc(C(CCn2ccnc2)OC(=O)c2ccc(Cl)cc2)cc1 ; method: agar diffusion ; tested at: 1000 µg ; value: 16 mm
O=c1[nH]c(=S)[nH]c2nc(-c3ccccn3)c(-c3ccccn3)nc12 ; tested at: 250 mg/mL ; value: 15 mm
C[C@H]1[C@H](O)[C@@H](C)/C=C/C=C/C=C/C=C/C=C/C=C/C=C/[C@H](O[C@@H]2O[C@H](C)[C@@H](O)[C@H](N)[C@@H]2O)C[C@@H]2O[C@](O)(C[C@@H](O)C[C@@H](O)CC[C@H](O)[C@@H](O)C[C@@H](O)CC(=O)O[C@H]1C)C[C@H](O)[C@H]2C(=O)O ; strain: Ct2 ; method: agar diffusion ; tested at: 100 µg/disc ; value: 22 mm
OC(Cn1cncn1)(Cn1cncn1)c1ccc(F)cc1F ; method: agar diffusion ; tested at: 1000 µg ; value: 16 mm

For reference, 2 entries again:

smiles	strain	method	tested at	value
Nc1[nH]c(=O)nc2nc(-c3ccccn3)c(-c3ccccn3)nc12	-	-	500 mg/mL	26 mm
CC(=O)N1CCN(c2ccc(OC[C@H]3CO[C@](Cn4ccnc4)(c4ccc(Cl)cc4Cl)O3)cc2)CC1	T2	agar diffusion / agar	20 mg/mL	10 mm

Zones are inhibition diameters on agar. Neighbouring rows are from separate reports.